ChEMBL document CHEMBL3102714 (J Med Chem, 2013)

The chains behind the UniProt entries cited, without tags or fusion partners. Residues count along the entry.
UniProt P04757, 26-499 limits assumed: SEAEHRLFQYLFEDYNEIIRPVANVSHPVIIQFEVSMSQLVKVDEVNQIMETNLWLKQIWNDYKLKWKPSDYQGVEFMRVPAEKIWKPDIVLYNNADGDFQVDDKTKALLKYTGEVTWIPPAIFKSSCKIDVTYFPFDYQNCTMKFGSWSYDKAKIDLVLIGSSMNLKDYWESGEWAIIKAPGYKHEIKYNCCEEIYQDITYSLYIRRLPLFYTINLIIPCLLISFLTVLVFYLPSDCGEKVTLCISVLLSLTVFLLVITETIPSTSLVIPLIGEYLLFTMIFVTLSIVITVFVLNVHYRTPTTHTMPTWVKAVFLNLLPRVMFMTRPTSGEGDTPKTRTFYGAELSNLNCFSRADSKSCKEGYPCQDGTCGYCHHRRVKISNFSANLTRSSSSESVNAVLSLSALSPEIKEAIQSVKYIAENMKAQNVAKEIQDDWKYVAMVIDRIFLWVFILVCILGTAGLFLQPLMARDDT
UniProt P12390, 25-500 limits assumed: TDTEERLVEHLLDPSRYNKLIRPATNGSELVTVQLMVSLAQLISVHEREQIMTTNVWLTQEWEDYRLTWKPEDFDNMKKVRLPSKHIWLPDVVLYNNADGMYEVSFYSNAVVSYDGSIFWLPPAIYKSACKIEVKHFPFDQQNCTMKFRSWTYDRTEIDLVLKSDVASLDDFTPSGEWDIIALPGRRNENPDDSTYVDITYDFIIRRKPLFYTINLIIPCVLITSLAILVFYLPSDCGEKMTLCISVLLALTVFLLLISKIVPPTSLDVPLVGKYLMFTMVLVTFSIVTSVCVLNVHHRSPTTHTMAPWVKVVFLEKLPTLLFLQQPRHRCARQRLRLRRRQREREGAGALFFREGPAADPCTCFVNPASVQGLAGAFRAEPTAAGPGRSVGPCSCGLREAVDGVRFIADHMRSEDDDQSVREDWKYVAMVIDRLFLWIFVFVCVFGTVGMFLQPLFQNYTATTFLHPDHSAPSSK
UniProt P12391, 31-464 limits assumed: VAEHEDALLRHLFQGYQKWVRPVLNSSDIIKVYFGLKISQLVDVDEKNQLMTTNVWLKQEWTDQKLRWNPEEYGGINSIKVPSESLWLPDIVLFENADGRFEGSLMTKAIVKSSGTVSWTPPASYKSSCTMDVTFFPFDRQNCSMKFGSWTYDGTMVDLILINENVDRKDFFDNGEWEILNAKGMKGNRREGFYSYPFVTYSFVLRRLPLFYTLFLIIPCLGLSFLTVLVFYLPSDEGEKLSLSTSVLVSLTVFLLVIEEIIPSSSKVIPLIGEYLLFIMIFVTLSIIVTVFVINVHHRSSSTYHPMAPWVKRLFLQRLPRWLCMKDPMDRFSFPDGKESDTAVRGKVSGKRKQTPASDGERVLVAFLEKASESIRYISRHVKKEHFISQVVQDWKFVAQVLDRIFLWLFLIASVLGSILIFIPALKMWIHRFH
UniProt P43143, 31-493 limits assumed: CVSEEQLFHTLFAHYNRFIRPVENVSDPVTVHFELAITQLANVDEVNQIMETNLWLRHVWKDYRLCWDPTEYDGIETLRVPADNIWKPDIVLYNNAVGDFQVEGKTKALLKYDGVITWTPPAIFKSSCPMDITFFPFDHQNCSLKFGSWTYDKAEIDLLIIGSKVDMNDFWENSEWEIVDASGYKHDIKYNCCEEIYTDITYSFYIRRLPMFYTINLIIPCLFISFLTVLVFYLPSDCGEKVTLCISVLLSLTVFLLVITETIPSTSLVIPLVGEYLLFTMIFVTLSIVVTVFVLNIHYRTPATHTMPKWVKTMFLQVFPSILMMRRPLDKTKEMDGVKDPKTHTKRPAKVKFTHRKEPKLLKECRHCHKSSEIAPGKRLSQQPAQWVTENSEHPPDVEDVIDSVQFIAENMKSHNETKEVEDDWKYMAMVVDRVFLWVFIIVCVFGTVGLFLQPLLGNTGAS

Molecular target: Nicotinic acetylcholine receptor alpha6/alpha3/beta2/beta3 (Rattus norvegicus, UniProt P04757+P12390+P12391+P43143)
Experiment: Antagonist activity at Sprague-Dawley rat alpha6/alpha3beta2beta3 nAChR expressed in Xenopus oocytes assessed as inhibition of ACh-induced current by voltage clamp electrophysiology method

Question: With `CC[C@H](C)[C@@H]1NC(=O)[C@H](CCC(=O)O)NC(=O)[C@@H]2CCCN2C(=O)[C@H](Cc2cnc[nH]2)NC(=O)[C@H](CC(=O)O)NC(=O)[C@H](Cc2ccc(O)cc2)NC(=O)[C@H](CC(N)=O)NC(=O)[C@@H]2CSSC[C@H](NC(=O)CN)C(=O)N[C@@H](CSSC[C@@H](C(N)=O)NC1=O)C(=O)N[C@@H](CO)C(=O)N[C@@H](CC(=O)O)C(=O)N1CCC[C@H]1C(=O)N[C@@H](CCCNC(=N)N)C(=O)N2` as the compound, how does the IC50 read?
Answer: The IC50 was 140 nM.
